According to paper PMC11813584, “An odorant-binding protein functions in fire ant social immunity interfacing with innate immunity” (Open Biology, 2025):

System: S. invicta workers
Assay: GC-MS analysis of cuticular chemicals of B. bassiana-killed versus freeze-killed workers
Parameters: species or system Solenopsis invicta
Conditions: for change on ant cuticle after infection: B. bassiana-killed versus freeze-killed workers; for concentration in B. bassiana-killed ants compared to freeze-killed ants (in words): fatty acids quantified by GC-MS

## CC(=O)C(C)O (stereo not drawn) [acetoin]
  change on ant cuticle after infection: decreases

## 3-octenol
  change on ant cuticle after infection: increases

## CCCCC/C=C\C/C=C\CCCCCCCC(=O)O [linoleic acid, cis,cis-9,12-linoleic acid]
  change on ant cuticle after infection: no change
  concentration in B. bassiana-killed ants compared to freeze-killed ants (in words): did not change

## CCCCCCCC/C=C/CCCCCCCCCC(=O)O [trans-11-eicosenoic acid]
  change on ant cuticle after infection: decreases
  concentration in B. bassiana-killed ants compared to freeze-killed ants (in words): significantly higher in freeze-killed ants

## CCCCCCCC/C=C\CCCCCCCC(=O)O [oleic acid]
  change on ant cuticle after infection: no change
  concentration in B. bassiana-killed ants compared to freeze-killed ants (in words): did not change

## CC(=O)C(C)=O [2,3 butanedione]
  change on ant cuticle after infection: decreases
